Compound potency records, mixed from different reports. Data source: NIAID ChemDB in PubChem.

Shared fields: toxicity to cultured cells; endpoint: CC50

Neighbouring rows are from separate reports. CCn is the concentration with n% toxicity to the cells. An empty or dashed field is not shown.

| compound | cells | read by | value |
|---|---|---|---|
| C/C1=C\[C@H](O)C[C@@](C)(O)/C=C/[C@H](C(C)C)CC/C(C)=C/CCC1 | Microglia | MTT | >100 µM |
| OC[C@H]1O[C@@H](n2ccc3c(-c4ccco4)nc(F)nc32)C(O)C1O | K562 leukemia cells | MTT | 6.18 µM |
| O=C(OC[C@H]1O[C@@H](OC(=O)c2cc(O)c(O)c(O)c2)[C@H](OC(=O)c2cc(O)c(O)c(O)c2)[C@@H](OC(=O)c2cc(O)c(O)c(O)c2)[C@@H]1OC(=O)c1cc(O)c(O)c(O)c1)c1cc(O)c(O)c(O)c1 | H9 | - | 45 µM |
| Cn1c2c3ccccc3nc-2cc2ccccc21 | Macrophage | MTT | 17 µM |
| N=C(N)c1cccc(OCc2ccc(OCc3ccccc3)cc2)c1 | HUT4-3/SX22-1 | - | <100 µM |
| C=CCCC1=NCC(OC(C)=O)c2cc(OC)c(OC)cc21 | HepG2 | - | <7.5 µM |
| CCCN(CCC[C@H](NC(C)=O)C(=O)NCc1ccccc1)C(=O)NCCCl | CEM-IW | - | >100 µM |
| OC[C@H]1O[C@@H](n2ccc3c(-c4cc5ccccc5o4)nc(Cl)nc32)C(O)C1O | K562 leukemia cells | MTT | 11 µM |
| Cc1nc(NCCCCNc2ccnc3cc(Cl)ccc23)nc(-c2ccccc2)c1C(=O)OC(C)C | MDCK cells | MTS | 0.6 µM |
| CCCC[C@@H](CN[C@@H](CN)CCCCNC)NCc1cccc2ccccc12 | J774 | fluorescence | 36.49 µM |
| NC(=S)Nc1ccc2c(c1)C(=O)c1cc(Br)ccc1-2 | Ava5-EG(delta4AB)SEAP | MTS | >1 µM |
| O=C(O)c1cc(-c2ccco2)nc2ccccc12 | RAJI | - | >20 µM |
| Cc1nc(N)nc2c1ccn2[C@@H]1O[C@H](CO)C(O)C1O | K562 leukemia cells | MTT | 12.4 µM |
| COc1ccnc(Nc2ccc(C#N)c(Oc3cc(C)cc(C)c3)c2)n1 | MT-2 | - | 1.3 µM |
| CCCNc1ccccc1OCCCCC(=O)OCC | BJ | - | >20 µM |
| OCC1CCC(c2ccc3ncnc(Nc4ccc(C5CCOCC5)cc4)c3c2)O1 | JFH-A4 | - | 18.9 µM |
| Cc1cc(/C=C/C#N)cc(Oc2cc(Nc3ncnc(C4CC4)n3)ccc2C#N)c1 | MT-2 | - | 1.5 µM |
| CCOC(=O)CCCCCOc1cccc(CN(C(=O)c2ccc(-c3cccc(-c4ccccc4)c3)cc2)C(C)C)c1 | RAJI | - | >20 µM |
| NC(=S)Nc1cccc(OCCCCCOc2ccc(Cl)c3ccccc23)c1 | Ava5-EG(delta4AB)SEAP | MTS | >1 µM |
| CCOC(=O)c1c(C)nc(NCCCCNc2ccnc3cc(Cl)ccc23)nc1-c1ccc(Cl)cc1 | MDCK cells | MTS | 2.2 µM |
| N#C/C=C/c1cccc(Oc2cc(Nc3ncnc(C4CC4)n3)ccc2C#N)c1 | MT-2 | - | 1.8 µM |
| O=C(O[C@@H]1[C@H](c2c(O)cc(O)c3c2O[C@H](c2ccc(O)c(O)c2)[C@H](OC(=O)c2cc(O)c(O)c(O)c2)C3)c2c(O)cc(O)c([C@H]3c4c(O)cc(O)cc4O[C@H](c4ccc(O)c(O)c4)[C@@H]3OC(=O)c3cc(O)c(O)c(O)c3)c2O[C@@H]1c1ccc(O)c(O)c1)c1cc(O)c(O)c(O)c1 | H9 | - | >25 µM |
| COc1ccc(OCCCCCOc2cccc(NC(N)=S)c2)c(Cl)c1 | Ava5-EG(delta4AB)SEAP | MTS | >1 µM |
| OC[C@H]1O[C@@H](n2ccc3c(-c4cccc5c4oc4ccccc45)nc(Cl)nc32)C(O)C1O | CCRF-CEM leukemia cells | MTT | 49.8 µM |
| NC(=S)Nc1cccc(OCCCCCCc2ccccc2)c1 | Ava5-EG(delta4AB)SEAP | MTS | >1 µM |
| CCOC(=O)c1cnc(NCCCCNc2ccnc3cc(Cl)ccc23)nc1C | MDCK cells | MTS | 10.3 µM |
| CCCN(Cc1ccccc1OCC(=O)OCC)C(=O)c1ccc(-c2ccc3c(c2)OCO3)cc1 | HEK 293 | - | >20 µM |
| N=C(N)c1cccc(OCc2ccc(Br)cc2)c1 | HUT4-3/SX22-1 | - | <100 µM |
| NC(=S)Nc1cccc(OCCCCCOc2c(Cl)cc(F)cc2Cl)c1 | Ava5-EG(delta4AB)SEAP | MTS | >1 µM |
| CCCNCCCC[C@H](NC(C)=O)C(=O)NCc1ccccc1 | CEM-IW | - | >100 µM |
| NC(=S)Nc1cccc(OCCCCCOc2cccc3ncccc23)c1 | Ava5-EG(delta4AB)SEAP | MTS | >1 µM |
| C=C(C)[C@@H]1CCC2(C(=O)OC)CC[C@]3(C)C(CCC4[C@@](C)(CC#N)C(C(C)(C)C(=O)Nc5nccs5)CC[C@]43C)C12 | RD TE32 | MTT | >100 µM |
| Oc1cc(O)c2c(c1)O[C@H](c1ccc(O)c(O)c1)[C@H](O)[C@H]2c1c(O)cc(O)c2c1O[C@H](c1ccc(O)c(O)c1)[C@H](O)[C@H]2c1c(O)cc(O)c2c1O[C@H](c1ccc(O)c(O)c1)[C@H](O)C2 | H9 | - | >25 µM |
| Cc1ccc(COc2cccc(C(=N)N)c2)cc1 | HUT4-3/SX22-1 | - | <100 µM |
| O=C1OC2C(COC(=O)c3cc(O)c(O)c(O)c3)OC(OC(=O)c3cc(O)c(O)c(O)c3)C(OC(=O)c3cc(O)c(O)c4c3[C@@H]3C1=CC(=O)C(O)(O)C3(O)O4)C2OC(=O)c1cc(O)c(O)c(O)c1 | H9 | - | 40 µM |
| COc1cc2c(cc1OC)C(CC1(C)OCCO1)=NCC2 | HepG2 | - | <7.5 µM |
| OC[C@H]1O[C@@H](n2ccc3c(-c4cc5ccccc5o4)nc(F)nc32)C(O)C1O | CCRF-CEM leukemia cells | MTT | 38.1 µM |
| CNCCC[C@@H](CN[C@H](CN)Cc1cccc2ccccc12)NCCc1cccc2ccccc12 | J774 | fluorescence | 40.39 µM |
| OC[C@H]1O[C@@H](n2ccc3c(-c4cccs4)nc(F)nc32)C(O)C1O | MRC-5 fibroblast | MTT | >150 µM |
| N#Cc1ccc(Nc2nccc(C3CC3)n2)cc1Oc1cc(F)cc(F)c1 | MT-2 | - | 4.3 µM |